Measured values from several laboratories, pooled; numbers as filed in NIAID ChemDB.

Common to all: growth or infection tests; organism: HIV-1; endpoint: EC90

Lines come from different laboratories, so protocols vary. Blank or dashed fields: not listed here. ECn is the concentration giving n% inhibition of infection, replication or growth. a–b is a range or a potency band.

SMILES	setting	changes	strain or isolate	cells	result
O=C1N(Cc2cccc(C(=O)C(F)(F)F)c2)[C@H](Cc2ccccc2)[C@H](O)[C@@H](O)[C@@H](Cc2ccccc2)N1Cc1cccc(C(=O)C(F)(F)F)c1	-	-	RF	MT-2	33 µM
CC(C)C[C@@H]1[C@H](O)[C@@H](O)[C@@H](CC(C)C)N(Cc2cccc(C(=O)Nc3nc4ccccc4[nH]3)c2)C(=O)N1Cc1cccc(C(=O)Nc2nc3ccccc3[nH]2)c1	3 d	-	RF	MT-2	0.059 µM
Nc1ncnc2c1c1c(N)ncnc1n2[C@@H]1O[C@H](CO)[C@@H](O)[C@H]1O	-	-	LAI	PBMC	>100 µM
CCCC1(CCc2ccc(F)cc2)CC(O)=C(C(CC)c2cccc(NS(=O)(=O)c3ccc(C#N)cn3)c2)C(=O)O1	-	-	IIIB	H9	0.8 µM
Cc1nc2ccccc2n1C1[C@H]2CN(CC[C@H](NC(=O)C3CCC3)c3ccccc3)C[C@@H]12	-	-	BAL R5	PM1	>1 µM
CC(C)(C)NC(=O)[C@@H]1C[C@@H]2CCCC[C@@H]2CN1C[C@@H](O)[C@H](Cc1ccccc1)NC(=O)[C@H](CC(N)=O)NC(=O)c1ccc2ccccc2n1	-	-	IIIB	CEM + CEM-SS	0.022 µM
C[C@@H]1C[C@@H]([C@H](O)CC2CC(=O)NC(=O)C2)C(=O)[C@@H](C)C1	-	-	RF	MT-2	0.8 µg/mL
CCCC1(CCC)CC(O)=C([C@H](CC)c2cccc(NS(=O)(=O)c3ccc(C(F)(F)F)cn3)c2)C(=O)O1	-	-	IIIB	H9	1 µM
Cc1ccc(O)c(C)c1C(=O)N[C@@H](Cc1ccccc1)[C@H](O)C(=O)N1C[C@@H](Cl)C[C@H]1C(=O)NC(C)(C)C	-	-	IIIB	CEM	0.105 µM
CCN(C(=O)OCc1ccc([N+](=O)[O-])cc1)C1CCN(CC[C@](C)(CN(C)S(=O)(=O)c2ccccc2)c2ccccc2)CC1	-	-	YU-2 (M-tropic)	MAGI + MAGI-CCR5	<0.05 µM
CCC(C1=C(O)CC(CCc2ccccc2)(CCc2ccccc2)OC1=O)c1cccc(NS(=O)(=O)c2ccc(C#N)cn2)c1	-	-	IIIB	H9	0.54 µM
COc1ccc(S(=O)(=O)N(CC2CCCC2)C[C@@H](O)[C@H](Cc2ccccc2)NC(=O)O[C@H]2CCOC2)cc1	-	-	IIIB	CEM + CEM-SS	0.023 µM
O=C1N(Cc2cccc(Br)c2)[C@H]2[C@H](CS(=O)(=O)[C@H]2CCCCCO)N1Cc1cccc(Br)c1	-	-	RF	MT-2	80 µM
CCCC1(CCc2ccccc2)CC(O)=C(C(c2cccc(NS(=O)(=O)c3ccc(N)cn3)c2)C(C)(C)C)C(=O)O1	-	-	IIIB	H9	0.9 µM
O=C(Nc1nc2ccccc2[nH]1)c1cccc(CN2C(=O)N(Cc3cccc(C(=O)Nc4nc5ccccc5[nH]4)c3)[C@H](Cc3ccc(OCc4ccccc4)cc3)[C@H](O)[C@@H](O)[C@H]2Cc2ccc(OCc3ccccc3)cc2)c1	3 d	-	RF	MT-2	0.125 µM
O=[P@]12O[C@@H]([C@@H](O)[C@@H](Cc3ccccc3)N1CC1CC1)[C@@H](Cc1ccccc1)N2CC1CC1	-	-	RF	MT-2	110.5 µM
Nc1cccc(CN2C(=O)N(Cc3ccc4[nH]nc(-c5ccc(F)cc5)c4c3)[C@H](Cc3ccccc3)[C@H](O)[C@@H](O)[C@H]2Cc2ccccc2)c1	-	PR-M46I L63P A71V V82F I84V	Ritonavir-resistant (PR M46I L63P A71V V82F I84V)	MT-2	>5 µM
CC(C)[C@H](NC(=O)OCc1ccccc1)C(=O)N[C@@H](Cc1ccccc1)[C@@H](O)[C@H](O)[C@H](Cc1ccccc1)NC(=O)[C@@H](NC(=O)OCc1ccccc1)C(C)C	-	-	RF	MT-2	0.04 µg/mL
Nc1n[nH]c2ccc(CN3C(=O)N(Cc4ccc5ccccc5c4)[C@H](Cc4ccccc4)[C@H](O)[C@@H](O)[C@H]3Cc3ccccc3)cc12	-	-	RF	MT-2	0.023 µM
C[C@]1(/C=C/P(=O)(O)O)CO[C@@H](n2cnc3c(N)ncnc32)C1	-	-	LAI	PBMC	90 µM
CCC[C@]1(CCc2ccccc2)CC(O)=C([C@@H](CC)c2cccc(NS(=O)(=O)c3ccc(C(F)(F)F)cn3)c2)C(=O)O1	-	-	IIIB	H9	3 µM
C[C@]1(CCP(=O)(O)O)CO[C@@H](n2cnc3c(=O)[nH]c(N)nc32)C1	-	-	LAI	PBMC	95 µM
Nc1nc2c(ncn2[C@H]2CO[C@@H](CO)O2)c(=O)[nH]1	-	-	-	MT-2	1.5 µM
CC(C)CN(C[C@@H](O)[C@H](Cc1ccccc1)NC(=O)[C@@H](NC(=O)CNCc1cccc(F)c1)C(C)(C)C)S(=O)(=O)c1cccc(N)c1	-	-	RF	MT-2	0.0039 µM
O=[P@]12OC([C@@H](O)[C@@H](Cc3ccccc3)N1Cc1ccc(CO)cc1)[C@@H](Cc1ccccc1)N2Cc1ccc(CO)cc1	-	-	RF	MT-2	0.154 µM
O=C(Nc1cc(S(=O)(=O)O)cc2cc(S(=O)(=O)O)c(N=Nc3ccc(N=Nc4c(S(=O)(=O)O)cc5cc(S(=O)(=O)O)cc(NC(=O)c6cccc(Cl)c6Cl)c5c4O)cc3)c(O)c12)c1ccc(Cl)cc1Cl	-	-	A018A	PBMC	3.16 µg/mL
C[C@@]1(O)[C@H](O)[C@@H](CO)O[C@H]1n1c2ncnc(N)c2c2c(=O)[nH]c(N)nc21	-	-	LAI	PBMC	>100 µM
COc1ccc(C[C@@H]2[C@H](O)[C@@H](O)[C@@H](Cc3ccc(OC)cc3)N(Cc3cccc(C(=O)Nc4nc5ccccc5[nH]4)c3)C(=O)N2Cc2cccc(C(=O)Nc3nc4ccccc4[nH]3)c2)cc1	3 d	-	RF	MT-2	0.019 µM
Nc1ccn([C@H]2CC[C@@H](CO)O2)c(=O)n1	-	-	RF	MT-2	0.1–0.3 µM
CC[C@@H]1[C@H](O)[C@@H](O)[C@@H](CC)N(Cc2cccc(C(=O)Nc3nc4ccccc4[nH]3)c2)C(=O)N1Cc1cccc(C(=O)Nc2nc3ccccc3[nH]2)c1	3 d	-	RF	MT-2	0.57 µM
NC(=O)c1cccc(CN2C(=O)N(Cc3cccc(C(N)=O)c3)[C@H](Cc3ccccc3)[C@H](O)[C@H]2CCc2ccccc2)c1	-	-	RF	MT-2	0.035 µM
CCCCN1[C@H](Cc2ccccc2)[C@H](O)[C@@H]2O[P@]1(=O)N(CCCC)[C@@H]2Cc1ccccc1	-	-	RF	MT-2	>109.5 µM
CCCc1c(O)cccc1C(=O)N[C@@H](Cc1ccccc1)[C@H](O)C(=O)N1C[C@@H](Cl)C[C@H]1C(=O)NC(C)(C)C	-	-	IIIB	CEM	0.23 µM
CC(C)(O)c1cccc(CN2C(=O)N(Cc3cccc(C(C)(C)O)c3)[C@H](Cc3ccccc3)[C@H](O)[C@@H](O)[C@H]2Cc2ccccc2)c1	-	-	RF	MT-2/MT-4 + MT-2	0.0337 µM
Nc1cccc(CN2C(=O)N(Cc3cccc(N)c3)[C@H](Cc3ccccc3)[C@H](O)[C@@H](O)[C@H]2Cc2ccccc2)c1	-	-	RF	MT-2	0.15 µM
Cc1ncnc(C)c1C(=O)N1CCC(C)(N2CCN([C@@H](Cc3ccccc3)c3ccc(C(F)(F)F)cc3)[C@@H](C)C2)CC1	-	-	JRFL Clinical isolates	PBMC	0.00019 µM

The last 3 rows once more:

CC(C)(O)c1cccc(CN2C(=O)N(Cc3cccc(C(C)(C)O)c3)[C@H](Cc3ccccc3)[C@H](O)[C@@H](O)[C@H]2Cc2ccccc2)c1 ; strain or isolate: RF ; cells: MT-2/MT-4 + MT-2 ; result: 0.0337 µM
Nc1cccc(CN2C(=O)N(Cc3cccc(N)c3)[C@H](Cc3ccccc3)[C@H](O)[C@@H](O)[C@H]2Cc2ccccc2)c1 ; strain or isolate: RF ; cells: MT-2 ; result: 0.15 µM
Cc1ncnc(C)c1C(=O)N1CCC(C)(N2CCN([C@@H](Cc3ccccc3)c3ccc(C(F)(F)F)cc3)[C@@H](C)C2)CC1 ; strain or isolate: JRFL Clinical isolates ; cells: PBMC ; result: 0.00019 µM